Data: patent US5212286A (Scios Nova Inc., priority 1986, dated 1993)

Assay: general procedure: Boc solid-phase peptide synthesis; Boc-Phe-pMBHA-Resin; N,N'-dicyclohexylcarbodiimide
Conditions: whole synthesis, reversed phase HPLC, acetate salt

PEPTIDE1{R.S.S.C.F.G.G.R.I.D.R.I.G.A.Q.S.G.L.G.C.N.S.F.[am]}$PEPTIDE1,PEPTIDE1,4:R3-20:R3$$$V2.0
final HPLC purity: minimum 97% purity

Strings that start with PEPTIDE1 are HELM notation: dots part the residues, brackets hold end groups and non-standard residues. One purity is given for all peptides; the source may state it once.
